Compound potency records, mixed from different reports. Data source: NIAID ChemDB in PubChem.

Shared fields: whole-cell or culture tests; agent: Mycobacterium abscessus

An empty or dashed field is not shown.

smiles | read by | mutations | strain or isolate | conditions | dose | measure | result
Cc1c(OCC(F)(F)F)ccnc1CSc1nc2ccccc2[nH]1 | resazurin |  | 2005-0524 |  |  | MIC90 | >100 µM
CCCCCCCN1CCc2c(sc(NC(=O)c3c(F)c(F)c(F)c(F)c3F)c2C(=O)OCC)C1 | turbidity |  |  |  |  | EC90 | >100 µM
CCCCCC1=NN(C(=O)CCOC(C)=O)OC(CCCCC)C1 | agar diffusion | IMP CIP PEN resistant | Clinical Isolate 690 |  | 200 µg/disc | zone | 25 mm
CCOC(=O)c1c(NC(=O)c2c(F)c(F)c(F)c(F)c2F)sc2c1CCNC2=O | resazurin / turbidity |  | bolletii 103 |  |  | EC50 | >200 µM
CCCCCCCCCCCCCCCCCCCCCCOC(=O)NC(C)(CCC(=O)O)CCC(=O)O |  |  | AAy-P-1 |  |  | MIC | 576 µg/mL
NCC[C@H](O)C(=O)N[C@@H]1C[C@H](N)[C@@H](O[C@H]2O[C@H](CN)[C@@H](O)[C@H](O)[C@H]2O)[C@H](O)[C@H]1O[C@H]1O[C@H](CO)[C@@H](O)[C@H](N)[C@H]1O | broth dilution / visual reading |  | DSM44196 |  |  | MIC100 | 4–8 µg/mL
CC(C)CCC[C@@H](C)[C@H]1CC[C@H]2[C@@H]3CC[C@H]4C[C@H](NC(=O)NC(CCC(=O)O)(CCC(=O)O)CCC(=O)O)CC[C@]4(C)[C@H]3CC[C@]12C |  |  | AAy-P-1 |  |  | MIC | 4.5 µg/mL
C/C=C(/C(=O)O)N1C(=O)C=C(C)C1=O | visual reading |  |  |  |  | EC50 | 100 µg/mL
CC[C@H]1OC(=O)[C@H](C)[C@@H](O[C@H]2C[C@@](C)(OC)[C@@H](O)[C@H](C)O2)[C@H](C)[C@@H](O[C@@H]2O[C@H](C)C[C@H](N(C)C)[C@H]2O)[C@](C)(OC)C[C@@H](C)C(=O)[C@H](C)[C@@H](O)[C@]1(C)O |  |  | AAy-P-1 |  |  | MIC | 0.2 µg/mL
C[C@@H](O)[C@H]1C(=O)N2C(C(=O)O)=C(S[C@@H]3CCCN3)S[C@H]12 | visual reading |  | L948 |  |  | MIC | 2 µg/mL
C[C@H](O)[C@H]1C(=O)N2C(C(=O)O)=C(S[C@@H]3CN[C@H](C(=O)N(C)C)C3)[C@H](C)[C@H]12 | broth dilution / visual reading |  | ATCC 19977 |  |  | MIC90 | >64 µg/mL
Cc1c(C)c(C)[c-](C)c1C.N[C@@H](Cc1ccccc1)C(=O)[O-].[Cl][Ir+2] |  |  | AAy-P-1 |  |  | MIC | 61 µg/mL
NCC[C@H](O)C(=O)N[C@@H]1C[C@H](N)[C@@H](O[C@H]2O[C@H](CN)[C@@H](O)[C@H](O)[C@H]2O)[C@H](O)[C@H]1O[C@H]1O[C@H](CO)[C@@H](O)[C@H](N)[C@H]1O | broth dilution |  | CIP 104536 |  |  | MIC | 32 µg/mL
CCCCCCCCCCCCCCCCCCCCCCC(=O)NC(C)(CCC(=O)O)CCC(=O)O |  |  | AAy-P-1 |  |  | MIC | 72 µg/mL
NCC[C@H](O)C(=O)N[C@@H]1C[C@H](N)[C@@H](O[C@H]2O[C@H](CN)[C@@H](O)[C@H](O)[C@H]2O)[C@H](O)[C@H]1O[C@H]1O[C@H](CO)[C@@H](O)[C@H](N)[C@H]1O | broth dilution |  |  |  |  | MIC50 | 16 µg/mL
CCOC(=O)c1c(NC(=O)c2c(F)c(F)c(F)c(F)c2F)sc2c1CCNC2 | turbidity |  |  |  |  | MIC | 1.7 µM
CCCCCCCCC(CCCCCCCC)OC(=O)NC(CCC(=O)O)(CCC(=O)O)CCC(=O)O |  |  | AAy-P-1 |  |  | MIC | 216 µg/mL
CCOC(=O)c1c(-c2ccccc2)c2ccc(Cl)cc2oc1=O | resazurin |  | ATCC 19977 |  |  | MIC90 | >100 µg/mL
CCCCCCCCCCCCCCCCCCCCCCCCCCCCCCOC(=O)NC(C)(CCC(=O)O)CCC(=O)O |  |  | AAy-P-1 |  |  | MIC | 144 µg/mL
Cc1ccn2c(C(=O)NCc3ccc(N4CCCN(c5ccc(C(F)(F)F)cc5)CC4)c(F)c3)c(C)nc2c1 | luminescence |  | Clinical isolate | clinical isolate |  | MIC50 | >10 µg/mL
CCCCCCCCCCCCC(CCCCCCCCCCCC)OC(=O)NC(CCC(=O)O)(CCC(=O)O)CCC(=O)O |  |  | AAy-P-1 |  |  | MIC | 27 µg/mL
CC(=O)NC[C@H]1CN(c2ccc3c(c2)Oc2ccccc2O3)C(=O)O1 | broth dilution / visual reading |  |  |  |  | MIC90 | >64 µg/mL

Again, the opening 2 rows:

{"smiles": "Cc1c(OCC(F)(F)F)ccnc1CSc1nc2ccccc2[nH]1", "read by": "resazurin", "strain or isolate": "2005-0524", "measure": "MIC90", "result": ">100 µM"}
{"smiles": "CCCCCCCN1CCc2c(sc(NC(=O)c3c(F)c(F)c(F)c(F)c3F)c2C(=O)OCC)C1", "read by": "turbidity", "measure": "EC90", "result": ">100 µM"}

ECn is the concentration giving n% inhibition of infection, replication or growth. Lines come from different laboratories, so protocols vary. MIC50, MIC90 and the like: level of inhibition, or share of isolates inhibited. Two numbers with a dash give a range or band. Zones are inhibition diameters on agar.